# Results published in PubChem BioAssay AID1259415 (National Center for Advancing Translational Sciences (NCATS), 2018).
# This is a selection; strong and weak results do not stand in their true shares. Inconclusive results are not listed. The source made the active and inactive calls. Rule as the data show it: active = activity change below about -60%; inconclusive = no clear call, values can overlap the other calls; inactive = above about -39%.
# Test: qHTS Assay for inhibitors of the human cytomegalovirus (HCMV)
# Settings: HFF cells, HCMV-luciferase reporter, 72 h; at 57.5 µM; active compounds read low
# From the text: NCGC Assay Overview: Infection with human cytomegalovirus (HCMV) continues to pose significant threats for pregnant women and immunocompromised hosts. HCMV causes serious morbidity and mortality in transplant recipients, and congenital HCMV is the leading infectious cause of mental retardation and deafness in children. In the 1990s, the annual costs associated with the disease burden of congenital CMV were estimated at around $2 billion. A HCMV vaccine is not available yet and HCMV therapies result in intolerable side effects and emergence of drug resistant viruses. […] Towards this goal we have developed and characterized a luciferase HCMV reporter that was initially used in 96 well plates and then optimized to 1536-well plates for utilization in screening of the MLSMR collection, the NGCG diversity collection and the NCGC Pharmaceutical Collection of approved and investigational drugs.
# NCGC Assay Protocol Summary:
# This is a cell-based assay for HCMV inhibition in HFFs cells. The screening used 2 compound doses and the HCMV-luciferase at MOI of 1 PFU/cell. Cells were treated and infected with HCMV. At 72 h post infection cell lysates were collected and luciferase activity was determined using the Glomax-Multi + Detection System (Promega, Madison, WI). Data were normalized to the controls for basal activity (buffer only) and known HCMV inhibitors Salinmoycin.
# 1536-well assay protocol for the assay:
# (1) Add 3 ul CMV/HFF cell culture. 1000 cells/well in DMEM nirmal media.
# (2) Incubate 16 hr at 37C.
# (3) Add 23 nl control compound, 10uM of Salinomycin.
# (4) Add 23 nl compounds in DMSO solution.
# (5) Add 3 ul CMV suspension. Final 1 puf/ul, Virus stock 2000pfu/ul
# (6) Incubate 72 hrs at 37C.
# (7) Add 4 ul OneGlo Luc Reagent.
# (8) Incubate 5 min at room temperature.
# % is scaled to controls: 0 for no effect and ±100 for the full control effect.
row,SMILES,"activity change, negative = inhibition"
1,O=C1C(O)=C([N+](=O)[O-])C(=O)C(O)=C1[N+](=O)[O-],inactive: -34.2%
2,COc1ccc(Cl)cc1C(=O)NCC1(N2CCOCC2)CCCCC1,inactive: -1.66%
3,CCOC(=O)N1CCC(Nc2ccc(OC)cc2)CC1,inactive: -15.6%
4,CCOc1ncccc1C(=O)NCC1(N2CCOCC2)CCCCC1,inactive: -1.34%
5,CN1CCC(Nc2ccc(F)c(Cl)c2)CC1,inactive: 2.21%
6,CC(C)(C)OC(=O)N1CCC(Nc2ccccc2)CC1,inactive: 11%
7,NN(c1ccccc1)C1CCN(CCc2ccccc2)CC1,inactive: -24.2%
8,O=C(O)C1(Nc2ccccc2)CCN(Cc2ccccc2)CC1,inactive: 4.73%
9,COc1cc(C(=O)NCC2(N3CCOCC3)CCCCC2)cc(OC)c1OC,inactive: 9.48%
10,COc1cc(OC)cc(C(=O)NCC2(N3CCOCC3)CCCCC2)c1,inactive: -22.8%
11,CCC(CO)(C(=O)OC1CN2CCC1CC2)c1ccccc1 (stereo not given),inactive: -12.4%
12,CN1CCC(Nc2ccc(Cl)cc2)CC1,inactive: 20%
13,CC(=O)N(c1ccccc1)C1CCNCC1,inactive: -23.7%
14,CN(C)C1(CNC(=O)c2ccc(C(C)(C)C)cc2)CCCCC1,inactive: -15.9%
15,CCC(c1nnnn1C1CCCCC1)N1CCC(n2c(=O)[nH]c3ccccc32)CC1 (stereo not given),inactive: -37.9%
16,Cc1ccc(C(=O)NCC2(N3CCCCC3)CCCCC2)o1,inactive: -22.4%
17,Cc1ccc(NC2(C#N)CCN(Cc3ccccc3)CC2)cc1,inactive: 17.1%
18,Cc1ccccc1NC1(C#N)CCN(Cc2ccccc2)CC1,inactive: -2.69%
19,CC(C)(C)n1nnnc1C(c1ccnc2ccccc12)N1CCC(n2c(=O)[nH]c3ccccc32)CC1 (stereo not given),inactive: -3.72%
20,COc1ccc(C(c2nnnn2C2CCCCC2)N2CCC(n3c(=O)[nH]c4ccccc43)CC2)cc1 (stereo not given),inactive: -24.8%
21,CCN1CCC(Nc2cccc(F)c2)CC1,inactive: 5.04%
22,Cc1ccccc1C(=O)NCC1(N(C)C)CCCCC1,inactive: 8.31%
23,CC(C)(C)c1ccc(C(=O)NCC2(N3CCOCC3)CCCCC2)cc1,inactive: 4.27%

row,SMILES,"activity change, negative = inhibition"
1,O=C(NCC1(N2CCCCC2)CCCCC1)c1ccco1,inactive: -12.2%
2,CN(C)c1ccc(C(=O)NCC2(N3CCCCC3)CCCCC2)cc1,inactive: -14.4%
3,O=C(NCC1(N2CCOCC2)CCCCC1)c1ccccc1[N+](=O)[O-],inactive: 14.6%
4,N#Cc1ccc(C(=O)NCC2(N3CCCCC3)CCCCC2)cc1,inactive: -13.6%
5,O=C(NCC1(N2CCOCC2)CCCCC1)c1ccc([N+](=O)[O-])cc1,inactive: 9.53%
6,CCOC(=O)C(CC)C1=NC(C)(C)Cc2ccccc21.O=[N+]([O-])c1cc([N+](=O)[O-])c(O)c([N+](=O)[O-])c1 (stereo not given),inactive: 0%
7,CN(C)C1(CNC(=O)c2cccc(C#N)c2)CCCCC1,inactive: -9.18%
8,c1ccc(CN2CCC(Nc3ccccc3)CC2)cc1,inactive: 18.7%
9,C/C(N)=N\P(=O)(Oc1ccccc1)Oc1ccccc1,inactive: -27.4%
10,CCCN1CCC(Nc2cc(OC)cc(OC)c2)CC1,inactive: 31.7%
11,O=C(NCC1(N2CCOCC2)CCCCC1)c1ccccc1,inactive: -2.29%
12,Cc1cc(N(CCCl)CCCl)ccc1C=O,active: -70.7%
13,CC(C)(C)n1nnnc1C(c1cccc2ccccc12)N1CCC(n2c(=O)[nH]c3ccccc32)CC1 (stereo not given),inactive: -21.1%
14,O=C(NCC1(N2CCOCC2)CCCCC1)c1cc(Br)ccc1Cl,inactive: -10.3%
15,O=c1[nH]c2ccccc2n1C1CCN(C(c2cccs2)c2nnnn2C2CCCCC2)CC1 (stereo not given),inactive: -39.8%
16,COc1ccc(C(=O)NCC2(N3CCOCC3)CCCCC2)cc1OC,inactive: 20.3%
17,O=c1[nH]c2ccccc2n1C1CCN(C(c2ccnc3ccccc23)c2nnnn2C2CCCC2)CC1 (stereo not given),inactive: -5.38%
18,COc1cccc(C(c2nnnn2C(C)(C)C)N2CCC(n3c(=O)[nH]c4ccccc43)CC2)c1OC (stereo not given),inactive: -20.6%
19,CCOC(=O)N1CCC(Nc2ccc(C)cc2)CC1,inactive: -6.1%
20,N/C(=N\O)c1c(N)no[n+]1[O-],inactive: -16.6%
21,O=C(O)c1cccc(Nc2c([N+](=O)[O-])cc([N+](=O)[O-])cc2[N+](=O)[O-])c1,inactive: -27.2%
22,O=c1[nH]c2ccccc2n1C1CCN(C(c2cccs2)c2nnnn2C2CCCC2)CC1 (stereo not given),inactive: -38%
